Results of unrelated studies side by side (data: NIAID ChemDB).

Shared fields: enzyme or target tests; agent: HIV-1; protein: Reverse transcriptase; measure: IC50

Rows are shuffled and stem from different studies. ICn is the concentration giving n% inhibition. An empty or dashed field is not shown. a–b is a range or a potency band.

{"structure": "Nc1cc2c(cc1F)CN(c1nn3c(C4CC4)nnc3c3ccccc13)CC2", "strain": "98US_MSC5016", "read by": "RT activity / fluorescence", "value": "0.28 µM"}
{"structure": "Cc1ccc(-n2nnnc2SCC(=O)Nc2ccc(C#CC(C)(C)O)cc2Cl)c(Cl)c1C(F)(F)F", "strain": "WT", "read by": "PicoGreen / fluorescence", "value": "<1 µM"}
{"structure": "CCN1c2ncc(CCOc3ccc(-c4cc(CC(=O)O)ccc4C)cc3C)cc2C(=O)N(C)c2cccnc21", "strain": "IIIB", "changes": "RT-K103N Y181C", "read by": "nucleotide incorporation / radiometric", "value": "0.05–0.1 µM"}
{"structure": "Cc1ccc(-n2nnnc2SCC(=O)Nc2ccc(-c3ccc(O)cc3)cc2Cl)c(Cl)c1", "strain": "WT", "read by": "PicoGreen / fluorescence", "value": "<1 µM"}
{"structure": "COc1ccc2c(c1)CN(c1nn3c(C(C)C)nnc3c3ccccc13)CC2", "strain": "98US_MSC5016", "read by": "RT activity / fluorescence", "value": "0.28 µM"}
{"structure": "CCN1c2ncc(CCOc3ccc(-c4cnc(C)c(C)c4)cc3C)cc2C(=O)N(C)c2cccnc21", "strain": "IIIB", "changes": "RT-K103N Y181C", "read by": "nucleotide incorporation / radiometric", "value": "<0.05 µM"}
{"structure": "CCOC(=O)/C=C/c1c(-c2cccs2)[nH]c2ccccc12", "read by": "RT activity", "value": "0.00797 µM"}
{"structure": "CC(C)(C#Cc1ccc(NC(=O)CSc2nnnn2-c2cc(C(F)(F)F)cc(C3CC3)c2Cl)c(Cl)c1)C(=O)O", "changes": "RT-K103 Y181C", "read by": "PicoGreen / fluorescence", "value": "<1 µM"}
{"structure": "CCN1c2ncccc2C(=O)N(C)c2ccc(-c3c[nH]c(C(N)=O)c3)nc21", "strain": "WT", "read by": "nucleotide incorporation / radiometric", "value": "<1 µM"}
{"structure": "Cc1ccc(-c2cn[nH]c2OCC(=O)Nc2ccc(-c3ccc(CC(=O)O)cc3)cc2Cl)c(Cl)c1", "changes": "RT-K103 Y181C", "read by": "PicoGreen / fluorescence", "value": "<1 µM"}
{"structure": "Cc1c(Cl)ccc2cc(/C=C/C(=O)c3cccc(Br)c3)c(Cl)nc12", "read by": "RT activity", "value": "0.21 µg/mL"}
{"structure": "CC(C)(C)c1ccc(-n2nnnc2SCC(=O)Nc2ccc(OCC(=O)NCCc3ccc(O)c(O)c3)cc2Cl)c(Cl)c1", "changes": "RT-K103 Y181C", "read by": "PicoGreen / fluorescence", "value": "<1 µM"}
{"structure": "COC(=O)/C=C/c1c(-c2cccs2)[nH]c2ccccc12", "read by": "RT activity", "value": "0.00293 µM"}
{"structure": "Cc1cc(C#N)ccc1Oc1ccc(CC(=O)Nc2ccc(S(N)(=O)=O)cc2)cc1Cl", "read by": "nucleotide incorporation / radiometric", "value": "100 µM"}
{"structure": "c1cnc2c(c1)CN(c1nn3c(C4CC4)nnc3c3ccccc13)CC2", "strain": "98US_MSC5016", "read by": "RT activity / fluorescence", "value": "2.64 µM"}
{"structure": "S=Cc1c(-c2cccs2)[nH]c2ccccc12", "read by": "RT activity", "value": "0.00354 µM"}
{"structure": "O=C(CSc1nnnn1-c1ccc(C2CC2)cc1Cl)Nc1ccc(OCC(=O)N2CCC(C(=O)O)CC2)cc1Cl", "changes": "RT-K103 Y181C", "read by": "PicoGreen / fluorescence", "value": "<1 µM"}
{"structure": "COc1cc(CC(=O)Nc2ccc(CS(N)(=O)=O)cc2)ccc1Oc1cc(Cl)cc(C#N)c1", "read by": "nucleotide incorporation / radiometric", "value": "10 µM"}
{"structure": "O=C(O)C(=O)CC(=O)C1(Cc2ccc(Cl)cc2)CCCN(Cc2ccccc2)C1", "value": "100 µM"}
{"structure": "CCN(CC)CC#Cc1ccc(NC(=O)CSc2nnnn2-c2ccc(C(C)(C)C)cc2Cl)c(Cl)c1", "strain": "WT", "read by": "PicoGreen / fluorescence", "value": "<1 µM"}
{"structure": "COc1ccc(C(=O)/C=C/c2cc3ccc(Cl)c(C)c3nc2Cl)cc1OC", "read by": "RT activity", "value": "0.15 µg/mL"}
{"structure": "CC(C)(C#Cc1ccc(NC(=O)CSc2nnnn2-c2ccc(C(C)(C)C)cc2Cl)c(Cl)c1)OCC(=O)N1CCC(C(=O)O)CC1", "changes": "RT-K103 Y181C", "read by": "PicoGreen / fluorescence", "value": "<1 µM"}
{"structure": "COP(=O)(c1cc(C)cc(CCC#N)c1)c1c(C(N)=O)[nH]c2ccc(Cl)cc12", "changes": "Y181C", "read by": "RT activity", "value": "0.361 µM"}
{"structure": "CC(C)(C)c1ccc(-n2nnnc2SCC(=O)Nc2ccc(NC(=O)Cc3ccncc3)cc2Cl)c(Cl)c1", "changes": "RT-K103 Y181C", "read by": "PicoGreen / fluorescence", "value": "<1 µM"}
{"structure": "COc1cc(CC(=O)Nc2ccc(S(N)(=O)=O)cc2)ccc1Oc1cc(Cl)cc(C#N)c1", "read by": "nucleotide incorporation / radiometric", "value": "10 µM"}
{"structure": "CCN1c2ncc(CCOc3ccc(C(=O)O)c4c3CCCC4)cc2C(=O)N(C)c2ccc(C)nc21", "strain": "WT", "read by": "nucleotide incorporation / radiometric", "value": "<0.1 µM"}
{"structure": "Cc1cc(C)cc(S(=O)(=O)c2c(C(=O)NC(C)C(N)=O)[nH]c3ccc(Cl)cc23)c1", "changes": "NNRTI-resistant (RT L100I)", "read by": "RT activity", "value": "0.199 µM"}
{"structure": "CCN1c2ncc(CCOc3ccc(CC(C)C(=O)O)c4ccccc34)cc2C(=O)Nc2c(C)ccnc21", "strain": "WT", "read by": "nucleotide incorporation / radiometric", "value": "<0.1 µM"}
{"structure": "CN(C)CCCC(=O)NC(C)(C)C#Cc1ccc(NC(=O)CSc2nnnn2-c2ccc(C3CC3)cc2Cl)c(Cl)c1", "strain": "WT", "read by": "PicoGreen / fluorescence", "value": "<1 µM"}
{"structure": "CC(=O)/C=C/c1c(-c2cccs2)[nH]c2ccccc12", "read by": "RT activity", "value": "0.00455 µM"}
{"structure": "CCN1c2ncccc2C(=O)N(C)c2ccc(-c3cc4cc(OC)ccc4[nH]3)nc21", "changes": "RT-Y188L", "read by": "nucleotide incorporation / radiometric", "value": "<1 µM"}
{"structure": "CC(C)(N)C#Cc1ccc(NC(=O)CSc2nnnn2-c2cc(C(F)(F)F)ccc2Cl)c(Cl)c1", "strain": "WT", "read by": "PicoGreen / fluorescence", "value": "<1 µM"}
{"structure": "Cc1cc(C)cc(S(=O)(=O)c2c(C(=O)NC(C)C(N)=O)[nH]c3ccc(Br)cc23)c1", "changes": "WT", "read by": "RT activity", "value": "0.028 µM"}
{"structure": "Nc1cc2c(c(N3CCCC3)c1)CCN(c1nn3c(C4CC4)nnc3c3ccccc13)C2", "strain": "98US_MSC5016", "read by": "RT activity / fluorescence", "value": "20.5 µM"}
{"structure": "CCN1c2ncccc2C(=O)N(C)c2ccc(-c3cccn3C(C)=O)nc21", "changes": "RT-Y188L", "read by": "nucleotide incorporation / radiometric", "value": ">1 µM"}
{"structure": "CC(C)(C)c1ccc(-n2nnnc2SCC(=O)Nc2ccc(C(=O)Nc3ccc(/C=C/C(=O)O)cc3)cc2Cl)c(Cl)c1", "changes": "RT-K103 Y181C", "read by": "PicoGreen / fluorescence", "value": "<1 µM"}
{"structure": "CCN1c2ncc(CCOc3ccc(CC(=O)O)c4ccccc34)cc2C(=O)N(C)c2cccnc21", "changes": "RT-V106A", "read by": "nucleotide incorporation / radiometric", "value": ">1 µM"}
{"structure": "CN(C)CC(=O)NC(C)(C)C#Cc1ccc(NC(=O)CSc2nnnn2-c2ccc(C3CC3)cc2Cl)c(Cl)c1", "strain": "WT", "read by": "PicoGreen / fluorescence", "value": "<1 µM"}
{"structure": "CN1C(=O)c2cccnc2N(C2CC2)c2nc(-c3cn[nH]c3)ccc21", "strain": "WT", "read by": "nucleotide incorporation / radiometric", "value": "<1 µM"}
{"structure": "CN(O)C(=O)COC(C)(C)C#Cc1ccc(NC(=O)CSc2nnnn2-c2ccc(C(C)(C)C)cc2Cl)c(Cl)c1", "strain": "WT", "read by": "PicoGreen / fluorescence", "value": "<1 µM"}
{"structure": "CCOC(=O)c1cc(-c2ccc3c(n2)N(CC)c2ncccc2C(=O)N3C)c[nH]1", "changes": "RT-Y181C", "read by": "nucleotide incorporation / radiometric", "value": "<1 µM"}
{"structure": "CCN1c2ncc(CCOc3ccc4cc(C(=O)NC(C)(C)C(=O)O)ccc4c3)cc2C(=O)N(C)c2cccnc21", "strain": "WT", "read by": "nucleotide incorporation / radiometric", "value": "<0.1 µM"}
{"structure": "COc1ccc(C(=O)/C=C/c2cc3ccc(Cl)c(C)c3nc2Cl)c(Br)c1", "read by": "RT activity", "value": "0.15 µg/mL"}
{"structure": "NC(=O)c1[nH]c2ccc(Cl)cc2c1S(=O)(=O)c1ccccc1", "changes": "RT-Y188L", "read by": "nucleotide incorporation / radiometric", "value": "1 µM"}
{"structure": "COC(=O)c1ccc(NC(=O)Cc2ccc(Oc3cc(C#N)cc(C#N)c3)c(Cl)c2)cc1", "read by": "nucleotide incorporation / radiometric", "value": "100 µM"}
{"structure": "CCN1c2ncccc2C(=O)N(C)c2ccc(-c3cccn3C)nc21", "strain": "WT", "read by": "nucleotide incorporation / radiometric", "value": "<1 µM"}
{"structure": "CCN1c2ncc(CCOc3ccc(C(=O)NCc4ccc(C(=O)O)cc4)cc3C)cc2C(=O)N(C)c2cccnc21", "strain": "IIIB", "changes": "RT-K103N Y181C", "read by": "nucleotide incorporation / radiometric", "value": "<0.05 µM"}
{"structure": "CN(C)CCCNC(=O)C(C)(C)C#Cc1ccc(NC(=O)CSc2nnnn2-c2ccc(C3CC3)cc2Cl)c(Cl)c1", "strain": "WT", "read by": "PicoGreen / fluorescence", "value": "<1 µM"}
{"structure": "Cc1cc(S(N)(=O)=O)ccc1NC(=O)COc1ccccc1C(=O)c1cc(Cl)cc(C#N)c1", "strain": "NNRTI-resistant", "changes": "RT-K103N Y181C", "read by": "nucleotide incorporation / radiometric", "value": "0.0051 µM"}
{"structure": "Cc1c(Cl)ccc2cc(/C=C/c3cccc4c3OCCO4)c(Cl)nc12", "read by": "RT activity", "value": "0.28 µg/mL"}
{"structure": "CC(C)c1nnc2c3ccccc3c(N3CCc4ccc(NS(C)(=O)=O)cc4C3)nn12", "strain": "IIIB", "read by": "RT activity / fluorescence", "value": "0.81 µM"}
{"structure": "Cc1cc(C)cc(S(=O)(=O)c2c(C(=O)NC(C)C(N)=O)[nH]c3ccc(Cl)cc23)c1", "changes": "RT-Y181I", "read by": "nucleotide incorporation / radiometric", "value": "0.13 µM"}
{"structure": "CCN1c2ncc(CCOc3ccc(C(=O)NS(=O)(=O)c4ccccc4)cc3C)cc2C(=O)N(C)c2cccnc21", "strain": "IIIB", "changes": "RT-K103N Y181C", "read by": "nucleotide incorporation / radiometric", "value": ">0.1 µM"}
{"structure": "N#Cc1cc(C#N)cc(Oc2ccc(CC(=O)Nc3ccc(S(N)(=O)=O)cc3)cc2Cl)c1", "read by": "nucleotide incorporation / radiometric", "value": "10 µM"}
{"structure": "CC(C)(C#Cc1ccc(NC(=O)CSc2nnnn2-c2ccc(C3CC3)cc2Cl)c(Cl)c1)NCC(N)=O", "strain": "WT", "read by": "PicoGreen / fluorescence", "value": "<1 µM"}
{"structure": "Cc1csc(/C=C/c2cc3ccc(Cl)c(C)c3nc2Cl)c1", "read by": "RT activity", "value": "0.19 µg/mL"}
{"structure": "CC(C)(C)c1ccc(-n2nnnc2SCC(=O)Nc2ccc(OCC(=O)Nc3ccccc3C(=O)O)cc2Cl)c(Cl)c1", "changes": "RT-K103 Y181C", "read by": "PicoGreen / fluorescence", "value": "<1 µM"}
{"structure": "COc1ccc(NC(=O)Cc2ccc(Oc3cc(C#N)cc(C#N)c3)c(Cl)c2)c(C)c1", "read by": "nucleotide incorporation / radiometric", "value": "100 µM"}
{"structure": "CCN1c2ncccc2C(=O)N(C)c2ccc(-c3c[nH]c4ccccc34)nc21", "strain": "WT", "read by": "nucleotide incorporation / radiometric", "value": "<1 µM"}
{"structure": "CC(C)(C#Cc1ccc(NC(=O)CSc2nnnn2-c2ccc(C3CC3)cc2Cl)c(Cl)c1F)OCCN1CCCC1", "strain": "WT", "read by": "PicoGreen / fluorescence", "value": "<1 µM"}
{"structure": "Oc1ccc2c(c1)CN(c1nn3c(C4CC4)nnc3c3ccccc13)CC2", "strain": "KER2008", "read by": "RT activity / fluorescence", "value": "0.39 µM"}
{"structure": "CCN1c2ncccc2C(=O)N(C)c2ccc(-c3ccc[nH]3)nc21", "strain": "WT", "read by": "nucleotide incorporation / radiometric", "value": "<1 µM"}
{"structure": "COc1ccc(CC(=O)Nc2ccc(NC(=O)CSc3nnnn3-c3ccc(C(C)(C)C)cc3Cl)c(Cl)c2)cc1", "changes": "RT-K103 Y181C", "read by": "PicoGreen / fluorescence", "value": "<1 µM"}
{"structure": "N#Cc1cc(C#N)cc(Oc2ccc(CC(=O)Nc3ccccc3C#N)cc2Cl)c1", "read by": "nucleotide incorporation / radiometric", "value": "10 µM"}

Repeating the first 6 entries:

structure,strain,changes,read by,value
Nc1cc2c(cc1F)CN(c1nn3c(C4CC4)nnc3c3ccccc13)CC2,98US_MSC5016,-,RT activity / fluorescence,0.28 µM
Cc1ccc(-n2nnnc2SCC(=O)Nc2ccc(C#CC(C)(C)O)cc2Cl)c(Cl)c1C(F)(F)F,WT,-,PicoGreen / fluorescence,<1 µM
CCN1c2ncc(CCOc3ccc(-c4cc(CC(=O)O)ccc4C)cc3C)cc2C(=O)N(C)c2cccnc21,IIIB,RT-K103N Y181C,nucleotide incorporation / radiometric,0.05–0.1 µM
Cc1ccc(-n2nnnc2SCC(=O)Nc2ccc(-c3ccc(O)cc3)cc2Cl)c(Cl)c1,WT,-,PicoGreen / fluorescence,<1 µM
COc1ccc2c(c1)CN(c1nn3c(C(C)C)nnc3c3ccccc13)CC2,98US_MSC5016,-,RT activity / fluorescence,0.28 µM
CCN1c2ncc(CCOc3ccc(-c4cnc(C)c(C)c4)cc3C)cc2C(=O)N(C)c2cccnc21,IIIB,RT-K103N Y181C,nucleotide incorporation / radiometric,<0.05 µM